The source of these data is PubChem BioAssay AID1053175 (ICCB-Longwood Screening Facility, Harvard Medical School, 2014).

Only a part is listed here, and it is no random draw. The source made the active and inactive calls.

A short description of the experiment: E. coli growth inhibition, primary screen, OD600 (AID 1053175). The note with it: Escherichia coli growth, OD600, 23 h; stronger effect = lower value.
For the compound `COc1cc(C(=O)NCC2(N3CCOCC3)CCCCC2)cc(Cl)c1OC(C)C`, the OD600 absorbance was inactive: 0.691.

Consider `O=[As](O)(O)c1cccnc1`, for which the OD600 absorbance is inactive: 0.702.

`CS(=O)(=O)c1ccc(Cl)c(NC(=O)COC(=O)C(O)(c2ccccc2)c2ccccc2)c1`: the OD600 absorbance is inactive: 0.728.

On to `COc1ccccc1OP(C)(=O)Nc1cccc(Br)c1` (stereo unspecified), for which the OD600 absorbance was inactive: 0.723.

With `O=C(OC1CN2CCC1CC2)c1ccc(Cl)cc1` (stereo unspecified), the OD600 absorbance was inactive: 0.679.

Take `CC1C=CCP(=O)(Oc2ccccc2)O1` (stereo unspecified): the OD600 absorbance was inactive: 0.681.

As for `CCOC(=O)c1ccc(NP(C)(=O)Oc2cc(C)cc(C)c2)cc1` (stereo unspecified), the OD600 absorbance was inactive: 0.65.

Consider `O=[As](O)(c1cccc(O)c1)c1cccc(O)c1`, for which the OD600 absorbance is inactive: 0.685.

As for `Cc1cccc(OCC(=O)OC2CN3CCC2CC3)c1` (stereo unspecified), the OD600 absorbance was inactive: 0.765.

As to `Cc1cc(C)cc(OP(C)(=O)Nc2ccc(C)cc2C)c1` (stereo unspecified), the OD600 absorbance was inactive: 0.671.

As to `CCCOP(=S)(Nc1nc(N)cc(=O)[nH]1)OCCC`, the OD600 absorbance is inactive: 0.687.

Turning to `Cc1ccc(C)c(NP(C)(=O)Oc2ccccc2)c1` (stereo unspecified), the OD600 absorbance was inactive: 0.73.

With `CP(=O)(Nc1cccc(Br)c1)Oc1ccccc1` (stereo unspecified), the OD600 absorbance was inactive: 0.673.

As for `Cc1cc(C)cc(OP(C)(=O)Nc2ccccn2)c1` (stereo unspecified), the OD600 absorbance is inactive: 0.706.

For the compound `Cc1ccc(NCCc2c([N+](=O)[O-])cc([N+](=O)[O-])cc2[N+](=O)[O-])cc1`, the OD600 absorbance is inactive: 0.637.

Take `CCOP(=O)(Nc1cccc2ccccc12)OCC`: the OD600 absorbance was inactive: 0.659.

`CCOP1(=S)c2c(C)nn(CCC#N)c2N=C(c2ccccc2F)N1C` (stereo unspecified): the OD600 absorbance was inactive: 0.626.

As to `O=C(O)c1cccc(Nc2c([N+](=O)[O-])cc([N+](=O)[O-])cc2[N+](=O)[O-])c1`, the OD600 absorbance is inactive: 0.691.

Consider `O=P(Nc1nccs1)(c1ccccc1)c1nc2ccccc2s1` (stereo unspecified), for which the OD600 absorbance is inactive: 0.58.

For `O=P(Nc1nccs1)(Oc1ccccc1)Oc1ccccc1`, the OD600 absorbance is inactive: 0.663.

As to `Nc1ccccc1[As](=O)(O)c1ccccc1`, the OD600 absorbance is inactive: 0.704.

As to `O=C(O)COc1ccc([As](=O)(O)O)cc1[N+](=O)[O-]`, the OD600 absorbance was inactive: 0.664.

In the case of `NC(=O)Nc1ccc([As](=O)(O)O)cc1`, the OD600 absorbance was inactive: 0.682.

For `CN(C)C(=O)c1cc([N+](=O)[O-])cc2c1-c1c(cc([N+](=O)[O-])cc1[N+](=O)[O-])C2=O`, the OD600 absorbance is inactive: 0.627.

For `O=[N+]([O-])c1ccc2c(c1)nnn2O`, the OD600 absorbance is inactive: 0.701.

As to `CC1=NCCc2c1[nH]c1ccccc21.O=[N+]([O-])c1cc([N+](=O)[O-])c(O)c([N+](=O)[O-])c1`, the OD600 absorbance is inactive: 0.648.

As to `Cc1ccc(NC(=NP(=O)(N2CCOCC2)N2CCOCC2)N2CCOCC2)cc1`, the OD600 absorbance is inactive: 0.71.

On to `N#CCCN(C(=O)COC(=O)C(O)(c1ccccc1)c1ccccc1)c1ccc(F)cc1`, for which the OD600 absorbance is inactive: 0.682.

As to `CCOP1(=S)c2c(C)nn(CCC#N)c2N=C(c2ccc(F)cc2)N1C` (stereo unspecified), the OD600 absorbance was inactive: 0.692.

As to `COc1cc(C2NCCC3(OCCO3)C2(C)C)cc(OC)c1OC.O=[N+]([O-])c1cc([N+](=O)[O-])c(O)c([N+](=O)[O-])c1` (stereo unspecified), the OD600 absorbance was inactive: 0.659.

Turning to `Cc1nn(-c2ccccc2)c2c1P(=O)(N1CCOCC1)N(C)C(c1ccccc1)=N2` (stereo unspecified), the OD600 absorbance was inactive: 0.673.

`CC1CCC(C(C)C)C(OP(=O)(Nc2ccccn2)c2ccccc2)C1` (stereo unspecified): the OD600 absorbance is inactive: 0.607.

With `Cc1ccc(C(=O)OC2CN3CCC2CC3)cc1` (stereo unspecified), the OD600 absorbance is inactive: 0.648.

Regarding `O=C(/C=C/c1ccccc1)OC1CN2CCC1CC2` (stereo unspecified), the OD600 absorbance was inactive: 0.658.

Take `CCCC1OP(=O)(Nc2ccccc2)OCC1CC` (stereo unspecified): the OD600 absorbance was inactive: 0.724.

Take `O=[N+]([O-])c1cc([N+](=O)[O-])c(Nc2nnnn2CCO)c([N+](=O)[O-])c1`: the OD600 absorbance is inactive: 0.687.

`CN(C)C1(CNC(=O)c2ccc(S(C)(=O)=O)cc2)CCCCC1`: the OD600 absorbance is inactive: 0.692.

In the case of `CCOC(=O)C(CC)C1=NC(C)(C)Cc2ccccc21.O=[N+]([O-])c1cc([N+](=O)[O-])c(O)c([N+](=O)[O-])c1` (stereo unspecified), the OD600 absorbance is inactive: 0.668.

`O=P1(Nc2ncccn2)COc2ccccc2OC1`: the OD600 absorbance is inactive: 0.699.

As to `COc1ccccc1OP(C)(=O)Nc1c(C)cccc1C` (stereo unspecified), the OD600 absorbance is inactive: 0.688.

In the case of `CN1CCCCC1COC(=O)C1(O)c2ccccc2CCc2ccccc21` (stereo unspecified), the OD600 absorbance was inactive: 0.714.

For the compound `O=P1(Nc2ccc(Br)cn2)COc2ccccc2OC1`, the OD600 absorbance is inactive: 0.677.

As for `NS(=O)(=O)c1cccc(NC(=O)COC(=O)C(O)(c2ccccc2)c2ccccc2)c1`, the OD600 absorbance is inactive: 0.663.

Regarding `O=[As](O)(c1cccs1)c1cccs1`, the OD600 absorbance is inactive: 0.694.

Regarding `Cc1ccc(OCC(=O)OC2CN3CCC2CC3)cc1` (stereo unspecified), the OD600 absorbance is inactive: 0.73.

Turning to `CP(=O)(Nc1ccc(SC(F)(F)F)cc1)Oc1ccccc1` (stereo unspecified), the OD600 absorbance was inactive: 0.661.

For the compound `Nc1cccc([As](=O)(O)c2ccccc2)c1`, the OD600 absorbance is inactive: 0.672.

Turning to `CCCOc1ccc(NP(C)(=O)Oc2ccc(Cl)cc2)cc1` (stereo unspecified), the OD600 absorbance was inactive: 0.7.

As to `CCOP(=O)(Nc1ccc(C)cn1)OCC`, the OD600 absorbance is inactive: 0.605.

Turning to `O=P1(Nc2ccccn2)COc2ccccc2OC1`, the OD600 absorbance was inactive: 0.713.

Turning to `O=[N+]([O-])c1cc([N+](=O)[O-])c(-n2nnc3ccccc32)c([N+](=O)[O-])c1`, the OD600 absorbance was inactive: 0.703.

Take `Clc1n[nH]nc1-c1nn[nH][15n]1`: the OD600 absorbance was inactive: 0.693.

On to `CC(C)(C)C(=O)NC(Sc1ncccn1)C(Cl)(Cl)Cl` (stereo unspecified), for which the OD600 absorbance was inactive: 0.624.

As for `COc1ccccc1CNC(=O)COC(=O)C(O)(c1ccccc1)c1ccccc1`, the OD600 absorbance is inactive: 0.688.

Take `O=[N+]([O-])c1cc([N+](=O)[O-])c(-c2cnn(-c3ccccc3)c2)c([N+](=O)[O-])c1`: the OD600 absorbance is inactive: 0.606.

Take `O=[As](O)(c1ccccc1Br)c1ccccc1Br`: the OD600 absorbance was inactive: 0.678.

With `Cc1nc2ccc3ccccc3c2s1.O=[N+]([O-])c1cc([N+](=O)[O-])c(O)c([N+](=O)[O-])c1`, the OD600 absorbance was inactive: 0.695.

For `CC1(CBr)Cn2c(nc3ccccc3c2=O)S1` (stereo unspecified), the OD600 absorbance is inactive: 0.637.

In the case of `CC1OP(=O)(Oc2ccccc2)C(O)C(O)C1N=[N+]=[N-]` (stereo unspecified), the OD600 absorbance is inactive: 0.721.

For `Cc1cccc(C)c1OP(C)(=O)Nc1ccc(SC(F)(F)F)cc1` (stereo unspecified), the OD600 absorbance was inactive: 0.68.

As for `CP(=O)(Nc1ccc(SC(F)(F)F)cc1)Oc1ccc(Cl)cc1` (stereo unspecified), the OD600 absorbance was inactive: 0.6.

As to `COP1(=S)c2c(C)nn(CCC#N)c2N=C(c2ccc(F)cc2)N1C` (stereo unspecified), the OD600 absorbance was inactive: 0.628.

With `CP(=O)(Oc1ccccc1)OC(c1ccccc1)C(F)(F)F` (stereo unspecified), the OD600 absorbance was inactive: 0.693.

Consider `CCc1ccc(OP(C)(=O)N2CCN(c3ccc([N+](=O)[O-])cc3)CC2)cc1` (stereo unspecified), for which the OD600 absorbance was inactive: 0.635.

For the compound `O=C(COc1ccccc1)OC1CN2CCC1CC2` (stereo unspecified), the OD600 absorbance was inactive: 0.731.

With `CP(=O)(NC(=O)Nc1ccccc1)Oc1ccccc1` (stereo unspecified), the OD600 absorbance is inactive: 0.69.

Turning to `Cc1cc(C)cc(OP(C)(=O)Nc2ccc(SC(F)(F)F)cc2)c1` (stereo unspecified), the OD600 absorbance is inactive: 0.698.

As to `O=C(Nc1ccncc1[N+](=O)[O-])c1ccc([N+](=O)[O-])cc1[N+](=O)[O-]`, the OD600 absorbance was inactive: 0.635.

In the case of `CCOC(=O)c1ccc(NP(C)(=O)Oc2ccc(OC)cc2)cc1` (stereo unspecified), the OD600 absorbance is inactive: 0.677.

Consider `CCOC(=O)c1ccc(NC(=O)C(C)(CCl)SC)cc1` (stereo unspecified), for which the OD600 absorbance was inactive: 0.673.

Turning to `O=[N+]([O-])c1cc([N+](=O)[O-])c(O)c([N+](=O)[O-])c1.c1ccc(Oc2ccncc2)cc1`, the OD600 absorbance is inactive: 0.617.

As for `O=C(OC1CN2CCC1CC2)c1cccc([N+](=O)[O-])c1` (stereo unspecified), the OD600 absorbance was inactive: 0.683.

On to `CCOP(C)(=S)SCC(=O)NC(C)C(=O)O` (stereo unspecified), for which the OD600 absorbance is inactive: 0.729.

On to `CP(=O)(Nc1ccccn1)Oc1ccc(Cl)cc1` (stereo unspecified), for which the OD600 absorbance is inactive: 0.675.

For the compound `CCC(C)N(CC(C)C)C(=S)SC(NC(C)=O)C(Cl)(Cl)Cl` (stereo unspecified), the OD600 absorbance is inactive: 0.693.

As for `CC1CCNP(=O)(N(CCCl)CCCl)O1` (stereo unspecified), the OD600 absorbance is inactive: 0.676.

With `CCOC(=O)Nc1ccc([As](=O)(O)O)c(O)c1`, the OD600 absorbance is inactive: 0.699.

Turning to `CCCCOc1ccc(C(=O)NCC2(N3CCCCC3)CCCCC2)cc1OC`, the OD600 absorbance was inactive: 0.66.

Regarding `COc1ccc(NC(=NP(=O)(N2CCOCC2)N2CCOCC2)N2CCOCC2)cc1`, the OD600 absorbance was inactive: 0.719.

Consider `Cc1cc(SC(NC(=O)c2ccccc2)C(Cl)(Cl)Cl)nc(C(C)C)n1` (stereo unspecified), for which the OD600 absorbance was inactive: 0.716.

`CCOC(=O)Nc1cccc([As](=O)(O)O)c1`: the OD600 absorbance was inactive: 0.677.

For the compound `CP(=S)(Nn1cnnc1)Oc1ccccc1` (stereo unspecified), the OD600 absorbance was inactive: 0.791.

For `CP(=O)(Nc1ccccc1Br)Oc1ccccc1` (stereo unspecified), the OD600 absorbance was inactive: 0.644.

For the compound `O=[N+]([O-])c1ccc(Nc2ccc(Oc3ccc([N+](=O)[O-])cc3[N+](=O)[O-])cc2)c([N+](=O)[O-])c1`, the OD600 absorbance was inactive: 0.71.

For `O=P(Nc1ccccn1)(c1cccc2ccccc12)c1cccc2ccccc12`, the OD600 absorbance is inactive: 0.695.

As to `Cc1cc(SC(NC=O)C(Cl)(Cl)Cl)ncn1` (stereo unspecified), the OD600 absorbance was inactive: 0.723.

Take `COc1ccccc1OP(C)(=O)Nc1ccccc1` (stereo unspecified): the OD600 absorbance was inactive: 0.706.

With `O=[As](O)(c1ccc(O)cc1)c1ccccc1O`, the OD600 absorbance was inactive: 0.686.

Regarding `C[As](=O)(O)c1cccc(C(=O)O)c1`, the OD600 absorbance is inactive: 0.643.

Consider `COc1cc(C(=O)NCC2(N3CCOCC3)CCCCC2)ccc1OCC(C)C`, for which the OD600 absorbance was inactive: 0.668.

For the compound `O=[N+]([O-])c1ccc(-c2cc([N+](=O)[O-])c(O)c([N+](=O)[O-])c2)cc1`, the OD600 absorbance was inactive: 0.641.

In the case of `CCCC(C)(O)C1CC23C=CC1(OC)C1Oc4c(O)ccc5c4[C@@]12CCN(C)[C@@H]3C5` (stereo partly specified), the OD600 absorbance is inactive: 0.732.

As for `O=[N+]([O-])c1cc([N+](=O)[O-])c(Nc2cccnc2)c([N+](=O)[O-])c1`, the OD600 absorbance was inactive: 0.537.

Take `Cc1ccc2nc3c(c(C)c2c1)CC(C(Cl)Cl)S3` (stereo unspecified): the OD600 absorbance is inactive: 0.686.

Consider `O=[N+]([O-])c1ccc2c(c1)C=Nc1ccccc1O2`, for which the OD600 absorbance was inactive: 0.703.

`CC(C)(C)c1ccc(OP(C)(=O)Nc2ccc(SC(F)(F)F)cc2)cc1` (stereo unspecified): the OD600 absorbance was inactive: 0.677.
